System: SARS-CoV-2
Assay: SARS-CoV-2 viral replication (YFP) assay
Type: cell-based
Conditions: Severe acute respiratory syndrome coronavirus 2, read-out: EC50 range

Compound: [2H]C([2H])([2H])Oc1cccc(-c2cc(F)c(NC(=O)C3=C(C(=O)NOC)CSC3)c(F)c2)c1 [Example 6, N^3-(3,5-Difluoro-3′-(methoxy-d3)-[1,1′-biphenyl]-4-yl)-N^4-methoxy-2,5-dihydrothiophene-3,4-dicarboxamide]
- EC50: < 1000 nM
